# Data: paper PMC9701186 (Nature Communications, 2022)
# T1: CCHFV strain Turkey-2004 GP38 (CCHFV, strain Turkey-2004, strain)
# T1 chain: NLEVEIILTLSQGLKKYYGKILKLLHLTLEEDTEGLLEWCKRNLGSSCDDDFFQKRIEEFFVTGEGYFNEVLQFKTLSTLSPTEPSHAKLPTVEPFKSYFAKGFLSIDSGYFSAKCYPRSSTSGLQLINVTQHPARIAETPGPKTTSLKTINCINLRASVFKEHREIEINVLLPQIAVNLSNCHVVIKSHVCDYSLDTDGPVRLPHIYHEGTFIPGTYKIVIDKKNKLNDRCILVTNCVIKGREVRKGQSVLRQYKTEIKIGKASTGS
# T2: CCHFV Turkey-2004 GP38 (CCHFV, strain Turkey-2004, strain)
# T2 chain: T1 chain
# T3: Turkey2004 GP38-his/strep (CCHFV, strain Turkey-2004, strain)
# T3 chain: T1 chain
# B1: human chimeric 13G8 mAb (c13G8) (antibody, V domains shown)
# VH: DVQLQQSGPGLVAPSQSLSITCTVSGFSLTNYGIHWVRQPPGKGLEWLGVIWAGGYTKYNSALMSRLSMSKDNSKSQVFLKMNSLQTDDTAMYYCARDEVRRDYYAMDHWGQGTTVTVSS
# VL: DIQMTQSPAILSASPGEKVTMTCWASSGVSYMHWYQQKPGSSPKPWIFATSNLASGVPARFSGSGSGTSYSLTISRVEAEDAATYYCQQWSFNPLTFGAGTKLEIK
# notes: copies: 2 + 2
# B2: CC5-17 mAb (antibody, V domains shown)
# VH: EVQLVQSGAEVKKPGESLRISCKGSGYSFTSYWIGWVRQMPGKGLEWMGIIYPGDSDTRYSPSFQGQVTISADKSISTAYLQWTSLKASDTAMYYCARQLGGSSFGNYYDSGSYYTAAYWGQGTLVTVSS
# VL: DIQMTQSPSSLSASVGDRVTITCRASQSINNYLNWYQQKPGKAPKLLIYAASTLQSGVPSRFSGSGSGTDFTLTISSLQPEDFASYYCQQSYRGTFGQGTKVEFK
# notes: copies: 2 + 2
# B3: CC5-17 mAb (antibody, V domains shown)
# VH: B2 VH
# VL: B2 VL
# Experiments:
# Test in all cases: BLI
# [1] = target: CCHFV strain IbAr10200 GP38 (Crimean-Congo hemorrhagic fever virus …, UniProt Q8JSZ3)
# [2] = target: T1, CCHFV strain Turkey-2004 GP38
# [3] = target: CCHFV IbAr10200 GP38 (Crimean-Congo hemorrhagic fever virus …, UniProt Q8JSZ3)
# [4] = target: T2, CCHFV Turkey-2004 GP38
# [5] = target: T3, Turkey2004 GP38-his/strep
binder,measurement,setting,value
B1,Kd,[1],0.427 nM
same,Kd,[2],0.523 nM
B2,binding result,[1],binds
same,binding result,[2],binds
B3,binding result,[3],binds
same,binding result,[4],binds
same,binding result,[5],binds
